Experimental findings from publication PMC9923724, “Half sandwich-type osmium, ruthenium, iridium and rhodium complexes with bidentate glycosyl heterocyclic ligands induce cytostasis in platinum-resistant ovarian cancer cells and bacteriostasis in Gram-positive multiresistant bacteria” (Frontiers in Chemistry, 2023) are described below.

Common to all, as to type: cell-based
What all share (settings): Hill slope

Data set [1] concerns A2780 ovarian cancer cells. In words: SRB assay (cytostasis, 48 h) on A2780 cells. How it is done:
First, we assessed a set of osmium complexes (similar to Ia [[Kacsir et al., 2022]) in Figure 1] and their sugar-derived ligands, in which the benzoyl protective groups on the carbohydrate moiety were replaced by aliphatic acyl groups of different chain length (straight chain C3-C7–CO). Osmium was selected as a central ion, since osmium complexes had the best biological activity in our previous studies ([Balázs et al., 2022]; [Kacsir et al., 2022]). These compounds were tested on A2780 ovarian cancer cells for toxicity and cytostasis. The therapy of ovarian cancer is centered around platinum compounds ([Brown et al., 2019]; [Sipos et al., 2021]), therefore, it was logical to use a cellular model of ovarian cancer for the initial testing of the compounds. Toxicity was assessed using the MTT assay that measures the activity of mitochondrial complex I. We chose 4 h long treatment as in an MTT assay this time point is suitable to detect rapid, direct toxicity. Cytostasis was assessed after 48 h of treatment using the SRB assay that assesses protein content that corresponds to cell count. The characteristics of the compounds are detailed in Table 2.
3 × 10^3 A2780 cells, were plated to 96 well plates. Cells were treated with the compounds in the concentrations indicated for either 4 h for an MTT assay or for 48 h for an SRB assay. Data is represented as average ± SD, from three biological replicates; individual assays were performed in duplicates. Values were normalized for vehicle treated cells, absorbance for vehicle treated cells equals to 1. […] Except for the Os-6 complex, Two-way ANOVA test was performed and all values were compared with each other (Tukey’s post hoc test). […] Non-linear regression was performed on the data.
(§1) 3 × 10^3 A2780 cells, 2 × 10^3 ID8 cells and 4 × 10^3 primary fibroblasts were plated to 96 well plates. Cells were treated with the compounds in the concentrations indicated for either 4 h for an MTT assay or for 48 h for an SRB assay. Data is represented as average ± SD, from three biological replicates; individual assays were performed in duplicates. Values were normalized for vehicle treated cells, absorbance for vehicle treated cells equals to 1. Statistical significance was assessed using two-way ANOVA test comparing the free ligand and each complex as a complex-ligand pair. Before the test normality was assessed using the D’Agostino-Pearson test. The ID8 SRB Ir-7+L-7 dataset had lognormal distribution. […] All other datasets had normal distribution. For better visibility the p values are presented in an excel sheet at https://figshare.com/s/2c942a812caea8869a67. Non-linear regression was performed on the A2780 SRB and the ID8 SRB datasets.
(§2) The assay was performed similar to ([Kovács et al., 2019]). Cells were seeded in 96 well plates the day before the assay. Cells were treated with the compounds for 48 h. Cells were fixed with 10% trichloroacetic acid (TCA). Fixed cells were washed in distilled water 3 times followed by staining with SRB (0.4 m/V% dissolved in 1% acetic acid) for 10 min. Stained cells were washed in 1% acetic acid 5 times; acetic acid was removed and cells were left to dry. Protein-bound SRB was released by adding 100 µl 10 mM Tris base. Plates were measured in a plate photometer (Thermo Scientific Multiscan GO spectrophotometer, Waltham, MA, United States) at 540 nm. On each plate wells were designed to contain vehicle-treated cells. In calculations the readings for these wells was considered as 1 and all readings were expressed relative to these values.
Statistical analysis was performed using 8.0.1 version of Graphpad Prism. Values were tested for normal distribution using the D’Agostino and Pearson normality test. When necessary, values were log normalized or were normalized using the Box-Cox normalization method ([Box and Cox, 1964]) as indicated in the figure captions. […]
Background: In SRB staining, fixed cells bind dye roughly in proportion to their protein.

Data set [2] deals with cisplatin resistant A2780 cells. In words: SRB assay (48 h) on cisplatin-resistant A2780 cells. As to the method:
6 × 10^3 cisplatin-resistant A2780 cells were plated to 96 well plates. Cells were treated with the compounds in the concentrations indicated for either 4 h for an MTT assay or for 48 h for an SRB assay. Data is represented as average ± SD, from three biological replicates; individual assays were performed in duplicates. Values were normalized for vehicle treated cells, absorbance for vehicle treated cells equals to 1. Each compound was assessed individually. Normality was assessed using the Shapiro-Wilk test. […] Statistical significance was assessed using One-way ANOVA test comparing all points to the smallest concentration. For better visibility the p values are presented in an excel sheet at https://figshare.com/s/2c942a812caea8869a67. Non-linear regression was performed on the results of the SRB assay datasets.
Cisplatin resistant cells underwent selection (1 µM cisplatin) once a week for 3 days before plating for any assay.
as §2
Statistical analysis was performed using 8.0.1 version of Graphpad Prism. Values were tested for normal distribution using the D’Agostino and Pearson normality test. When necessary, values were log normalized or were normalized using the Box-Cox normalization method ([Box and Cox, 1964]) as indicated in the figure captions.

For another data set, the system named is Saos osteosarcoma cells. Put plainly: SRB assay (48 h) on Saos cells. As to the method: (§3) 3 × 10^3 Capan2 cells, 2 × 10^3 Saos cells and 8 × 10^3 L428 were plated to 96 well plates. Cells were treated with the compounds in the concentrations for 48 h. Then for Capan2 and Saos SRB assay was performed, L428 cells were counted using a Burker chamber. Data is represented as average ± SD, from three biological replicates; individual assays were performed in duplicates. Values were normalized for vehicle treated cells, absorbance for vehicle treated cells equals to 1. Normality was checked using the Shapiro-Wilk test. The Saos Os-7 dataset was normalized using the Box-Cox method, other datasets had normal distribution. Each complex was individually assessed for statistical significance using One-way ANOVA test followed by Dunnett’s post hoc test; all values were compared to the values of the lowest concentration. For better visibility the p values are presented in an excel sheet at https://figshare.com/s/2c942a812caea8869a67. Non-linear regression was performed on the Capan2 and Saos datasets.
Saos cells were maintained in DMEM (4.5 g/L glucose) medium supplemented with 10% fetal calf serum, 2 mM glutamine, 1% penicillin-streptomycin.
as §2
(§4) Statistical analysis was performed using 8.0.1 version of Graphpad Prism. […]

The subject of data set [3] is Capan2 pancreatic adenocarcinoma cells. In words: SRB assay (48 h) on Capan2 cells. How it is done:
as §3
Capan2 cells were maintained in MEM, 10% fetal bovine serum, 1% Penicillin/Streptomycin, 2 mM Glutamine.
as §2, §4

The next data set relates to ID8 ovarian cancer cells. Put plainly: SRB assay (48 h) on ID8 cells. As to the method:
as §1
ID8 cells were cultured in high glucose DMEM (4.5 g/L glucose) medium supplemented with 4% fetal calf serum, 2 mM glutamine, 1% penicillin-streptomycin, 1% ITS supplement (I3146).
as §2, §4

Take `CCCCC(=O)OCC1OC(n2cc(-c3ccccn3)nn2)C(OC(=O)CCCC)C(OC(=O)CCCC)C1OC(=O)CCCC.Cc1ccc(C(C)C)cc1.F[P-](F)(F)(F)(F)F.[Cl][Os+]` (mixture of isomers) [Os-3]: the “A2780 SRB Hill” value in data set [1] was 2.50.
On the same count and under the same terms, to `CCCC(=O)OCC1OC(n2cc(-c3ccccn3)nn2)C(OC(=O)CCC)C(OC(=O)CCC)C1OC(=O)CCC.Cc1ccc(C(C)C)cc1.F[P-](F)(F)(F)(F)F.[Cl][Os+]` (mixture of isomers) [Os-2] belongs 2.25; to `CCCCCCC(=O)OCC1OC(n2cc(-c3ccccn3)nn2)C(OC(=O)CCCCCC)C(OC(=O)CCCCCC)C1OC(=O)CCCCCC.Cc1ccc(C(C)C)cc1.F[P-](F)(F)(F)(F)F.[Cl][Os+]` (mixture of isomers) [Os-5], 2.33.
With `Cc1ccc(C(C)C)cc1.F[P-](F)(F)(F)(F)F.O=C(OCC1OC(n2cc(-c3ccc4ccccc4n3)nn2)C(OC(=O)c2ccccc2)C(OC(=O)c2ccccc2)C1OC(=O)c1ccccc1)c1ccccc1.[Cl][Ru+]` (mixture of isomers) [Ru-7], the “cisplatin resistant A2780 SRB Hill” value in data set [2] was determined as 1.82. Also, the “SAOS SRB Hill” value in the data set with Saos osteosarcoma cells is recorded as 5.16. Further, the “A2780 SRB Hill” value in data set [1] is 1.84. In data set [3], the “Capan2 SRB Hill” value came out at 2.08. In addition, the “ID8 SRB Hill” value in the data set on ID8 ovarian cancer cells was 3.78.
The corresponding values for `Cc1ccc(C(C)C)cc1.F[P-](F)(F)(F)(F)F.O=C(OCC1OC(n2cc(-c3ccc4ccccc4n3)nn2)C(OC(=O)c2ccccc2)C(OC(=O)c2ccccc2)C1OC(=O)c1ccccc1)c1ccccc1.[Cl][Os+]` (mixture of isomers) [Os-7] are 1.17, 1.22, 1.80, 1.26 and 4.48.
As for `CCCCCC(=O)OCC1OC(n2cc(-c3ccccn3)nn2)C(OC(=O)CCCCC)C(OC(=O)CCCCC)C1OC(=O)CCCCC.Cc1ccc(C(C)C)cc1.F[P-](F)(F)(F)(F)F.[Cl][Os+]` (mixture of isomers) [Os-4], in data set [1], the “A2780 SRB Hill” value is reported as 2.41.
`Cc1c(C)c(C)[c-](C)c1C.F[P-](F)(F)(F)(F)F.O=C(OCC1OC(n2cc(-c3ccc4ccccc4n3)nn2)C(OC(=O)c2ccccc2)C(OC(=O)c2ccccc2)C1OC(=O)c1ccccc1)c1ccccc1.[Cl][Ir+2]` (mixture of isomers) [Ir-7]: in data set [2], the “cisplatin resistant A2780 SRB Hill” value was 2.40. Besides, the “SAOS SRB Hill” value in the data set with Saos osteosarcoma cells is 2.98. Besides, the “A2780 SRB Hill” value in data set [1] is given as 1.84. Also, in data set [3], the “Capan2 SRB Hill” value was determined as 1.78. Also, in the data set with ID8 ovarian cancer cells, the “ID8 SRB Hill” value amounted to 2.98.
